Compound potency records, mixed from different reports. Data source: NIAID ChemDB in PubChem.

All rows: growth or infection tests; organism: Mycobacterium fortuitum

Neighbouring rows are from separate reports. A number after MIC or MFC names an inhibition level or a share of isolates.

structure | strain or isolate | read-out | result
CN[C@@H]1[C@@H](O)[C@@H](O[C@@H]2[C@@H](O)[C@H](O[C@H]3O[C@H](CN)CC[C@H]3N)[C@@H](N)C[C@H]2N)OC[C@]1(C)O | ATCC 6841 | MIC | 16 µg/mL
CC[C@H]1OC(=O)[C@H](C)[C@@H](O[C@H]2C[C@@](C)(OC)[C@@H](O)[C@H](C)O2)[C@H](C)[C@@H](O[C@@H]2O[C@H](C)C[C@H](N(C)C)[C@H]2O)[C@](C)(OC)C[C@@H](C)C(=O)[C@H](C)[C@@H](O)[C@]1(C)O | 48 strains | MIC50 | 16 µg/mL
CO[C@H]1/C=C/O[C@@]2(C)Oc3c(C)c(O)c4c(O)c(c5c(c4c3C2=O)NC2(CCN(CC(C)C)CC2)N=5)=NC(=O)/C(C)=C\C=C\[C@H](C)[C@H](O)[C@@H](C)[C@@H](O)[C@@H](C)[C@H](OC(C)=O)[C@@H]1C | 20 strains | MIC50 | 3.13 µg/mL
C[C@H]1NCc2cc(-c3ccc4c(=O)c(C(=O)O)cn(C5CC5)c4c3OC(F)F)ccc21 | 10 strains | MIC90 | 0.25 µg/mL
O=C(O)c1cn(C2CC2)c2c(C(F)(F)F)c(N3CCNCC3)c(F)cc2c1=O | ATCC 6841 | MIC | 0.25 µg/mL
CC[C@H](C)N1CCN(c2cc(=O)c3nc4c(oc3c2)c2c(=O)c3c(O)c(C)c5c(c34)=C(O)[C@@](C)(O/C=C/[C@H](OC)[C@@H](C)[C@@H](OC(C)=O)[C@H](C)[C@H](O)[C@H](C)[C@@H](O)[C@@H](C)/C=C/C=C(/C)C(=O)N2)O5)CC1 | 20 strains | MIC50 | 25 µg/mL
CN[C@@H]1[C@H](O)[C@H](NC)[C@H]2O[C@@]3(O)C(=O)C[C@@H](C)O[C@H]3O[C@@H]2[C@H]1O | 31 isolates | MIC90 | >64 µg/mL
CCn1cc(C(=O)O)c(=O)c2cc(F)c(N3CCNCC3)nc21 | ATCC 6841 | MIC | 0.4 µg/mL
CNn1cc(C(=O)O)c(=O)c2cc(F)c(N3CCN(C)CC3)cc21 | 19 strains | MIC50 | 1 µg/mL
CCN1CCN(c2nc3c(cc2F)c(=O)c(C(=O)O)cn3C(C)(C)C)CC1 | ATCC 6841 | MIC | 0.13 µg/mL
CC1CN(c2cc3c(cc2F)c(=O)c(C(=O)O)cn3-c2ccc(F)cc2F)CCN1 | 19 strains | MIC50 | 0.125 µg/mL
CC1CN(c2c(F)cc3c(=O)c(C(=O)O)cn(C4CC4)c3c2Cl)CC(C)N1 | ATCC 6841 | MIC | 0.13 µg/mL
NC1CCN(c2nc3c(cc2F)c(=O)c(C(=O)O)cn3-c2ccc(F)cc2F)C1 | ATCC 6841 | MIC | 4 µg/mL
CCN1CCN(c2c(F)cc3c(=O)c(C(=O)O)cn(C4CC4)c3c2Cl)CC1 | ATCC 6841 | MIC | 0.13 µg/mL
C[C@H]1COc2c(N3CCN(C)CC3)c(F)cc3c(=O)c(C(=O)O)cn1c23 | 48 strains | MIC90 | 0.25 µg/mL
CCn1cc(C(=O)O)c(=O)c2cc(F)c(-n3cccc3)cc21 | 19 strains | MIC50 | 32 µg/mL
NC1CCN(c2nc3c(cc2F)c(=O)c(C(=O)O)cn3-c2ccc(F)cc2F)C1 | ATCC 6841 | MIC | 0.13 µg/mL
CCCN1CCN(c2cc(=O)c3nc4c(oc3c2)c2c(=O)c3c(O)c(C)c5c(c34)=C(O)[C@@](C)(O/C=C/[C@H](OC)[C@@H](C)[C@@H](OC(C)=O)[C@H](C)[C@H](O)[C@H](C)[C@@H](O)[C@@H](C)/C=C/C=C(/C)C(=O)N2)O5)CC1 | 20 strains | MIC90 | >100 µg/mL
CC[C@H]1OC(=O)[C@H](C)[C@@H](O[C@H]2C[C@@](C)(OC)[C@@H](O)[C@H](C)O2)[C@H](C)[C@@H](O[C@@H]2O[C@H](C)C[C@H](N(C)C)[C@H]2O)[C@](C)(O)C[C@@H](C)/C(=N\OCOCCOC)[C@H](C)[C@@H](O)[C@]1(C)O | 48 strains | MIC50 | 64 µg/mL
CCn1cc(C(=O)O)c(=O)c2cc(F)c(N3CCNCC3)nc21 | 19 strains | MIC90 | 2 µg/mL

Repeating the final 2 entries:

structure | strain or isolate | read-out | result
CC[C@H]1OC(=O)[C@H](C)[C@@H](O[C@H]2C[C@@](C)(OC)[C@@H](O)[C@H](C)O2)[C@H](C)[C@@H](O[C@@H]2O[C@H](C)C[C@H](N(C)C)[C@H]2O)[C@](C)(O)C[C@@H](C)/C(=N\OCOCCOC)[C@H](C)[C@@H](O)[C@]1(C)O | 48 strains | MIC50 | 64 µg/mL
CCn1cc(C(=O)O)c(=O)c2cc(F)c(N3CCNCC3)nc21 | 19 strains | MIC90 | 2 µg/mL